In US9447051B2, “Diaminopyrimidines and uses thereof” (AbbVie inc., priority 2012, dated 2016):

system: RSV (Group A, Long Strain); assay: Antiviral (RSV) assay: cytopathetic effect (CPE) protection assay in HEp-2 cells, MTT readout; format: cell-based, human respiratory syncytial virus (RSV); settings: Table 2; therapeutic window, ratio of MTT TD50 to RSV EC50
Experimental: HEp-2 cells and RSV (Group A, Long Strain) were obtained from the American Type Culture Collection (Manassas, Va.). A cytopathetic effect (CPE) protection assay was performed to determine the ability of a compound to protect the cells from viral infection and thus the CPE induced by viral infection. 96-well plates were first seeded with 3×10^3 HEp-2 cells per well in Dulbecco's modified Eagle's medium (DMEM) containing 10% fetal bovine serum (FBS). One day after the cells were seeded, they were preincubated with serial dilutions of compounds prepared in 100 μL assay medium (DMEM mixed with F12 medium at a 1:1 ratio, supplemented with 2% FBS and 1 mM sodium pyruvate) for 1 hour at 37° C. 100 μL of assay medium containing 0.2 multiplicity of infection (MOI) of RSV was then added to each well of cells. In addition to wells containing infected cells incubated with compounds, each plate also contained replicates of two kinds of controls: (1) Virus control contained cells infected with 0.2 MOI of RSV in assay medium, (2) Uninfected cell control contained cells incubated with assay medium only. After 4 days of incubation at 37° C., the viability of cells was assessed using MTT (Thiazolyl blue tetrazolium bromide, Sigma). A stock solution of MTT, at a concentration of 4 mg/mL in phosphate-buffered saline, was added to all wells at 25 μL per well. Plates were further incubated for 4 hours, and each well was then treated with 50 μL of a solution containing 20% sodium dodecyl sulfate (SDS) and 0.02 N HCl. After an overnight incubation, the plates were measured on a BioTek® microtiter plate reader at wavelengths of 570 nm and 650 nm. The MTT detection is based on the fact that viable (uninfected) cells can reduce the tetrazolium salts into colored formazan products, which can then be quantitated by spectrometry. […] Compounds were tested to determine both their antiviral and toxicity to determine their therapeutic window. Determination of the EC50 and TD50 of these active compounds were repeated one additional time to confirm the window.

**Q.** For Cc1nc(NCc2ccccn2)nc(NC2CCCCC2)c1C [Example 1, N^4-cyclohexyl-5,6-dimethyl-N^2-(pyridin-2-ylmethyl)pyrimidine-2,4-diamine], which “Window (TD50/EC50)” value is on record?
**A.** 153

**Q.** Which “Window (TD50/EC50)” value does the source give for Cc1ccccc1CNc1nc(NCc2ccccn2)nc2c1CCC2 [Example 2, N^4-(2-methylbenzyl)-N^2-(pyridin-2-ylmethyl)-6,7-dihydro-5H-cyclopenta[d]pyrimidine-2,4-diamine] here?
**A.** 3

**Q.** Cc1cc(NC2CCCCCC2)nc(NCc2ccccn2)n1 [Example 3, N^4-cycloheptyl-6-methyl-N^2-(pyridin-2-ylmethyl)pyrimidine-2,4-diamine] was tested. Which “Window (TD50/EC50)” value did it give?
**A.** 3

**Q.** With Cc1cc(NC2CCCCC2)nc(NCc2ccccn2)n1 [Example 4, N^4-cyclohexyl-6-methyl-N^2-(pyridin-2-ylmethyl)pyrimidine-2,4-diamine] as the compound, how does the “Window (TD50/EC50)” value read?
**A.** 1.6
